In article PMC5034337 (Scientific Reports, 2016):
Read-outs that look alike come from different tables or passages of the source.

Experiments:
[1] = first morning urine, Croatian pregnant women; cited from earlier work
mammalian ribosomes = conditions: read-out: IC50, inhibition of in vitro translation (production of the reporter protein reduced to 50%); rabbit reticulocyte lysate, six independent experiments
wheat ribosomes = conditions: read-out: IC50 on wheat ribosomes; cited from earlier work
T24 bladder cancer cells = experiment: Sulforhodamine B (SRB) assay, T24; conditions: T24, 24 h
Caco-2 cells = experiment: Sulforhodamine B (SRB) assay, Caco-2; conditions: Caco-2, 24 h
HT-29 cells = experiment: Cellular metabolism (deconjugation) in HT-29 cells, LC-MS/MS of supernatant and cell lysate; conditions: HT-29 cells incubated with 10 μM for 0, 3, 24 and 48 h
[2] = test system: HT-29 colon carcinoma cells; experiment: Sulforhodamine B (SRB) assay, HT-29; conditions: HT-29, 24 h
[3] = test system: primary human colon epithelial cells (HCEC-1CT); experiment: Sulforhodamine B (SRB) assay, HCEC-1CT; conditions: 24 h
[4] = Eight-day duplicate diet case study, 24 h urine of one volunteer (LC-MS/MS)
[5] = Average of days 3-6, as DON equivalents

In the case of DON-15-glucuronide, the maximum urinary concentration [1] is listed as 1238 µg/L.

In the case of DON-3-glucuronide, the maximum urinary concentration [1] is given as 298 µg/L.

For CC1=CC2OC3C(O)CC(C)(C34CO4)C2(COS(=O)(=O)O)C(O)C1=O (centres unmarked), the “detection in urine samples” value (Croatian urine samples) is listed as “no DON-15-sulfate was detected in any sample”, the IC50 (mammalian ribosomes) is listed as 47 µM and the IC50 (wheat ribosomes) is listed as 66 µM. For the same molecule, the “cytotoxic effect” value (T24 bladder cancer cells) was “only a limited effect”, the “proliferative stimulus” value (Caco-2 cells) was “not significant” and the “free DON formed by hydrolysis of the conjugate” value (HT-29 cells) was “neither detected in the supernatant nor in the cell lysate”.

In the case of CC1=CC2OC3C(OS(=O)(=O)O)CC(C)(C34CO4)C2(CO)C(O)C1=O (centres unmarked), the maximum urinary concentration (first morning urine, Croatian pregnant women, n = 40) is reported as 58 µg/L, the “share of urine samples in which the conjugate was quantified” value (first morning urine, Croatian pregnant women, n = 40 (28 out of 40)) is reported as 70% and the maximum urinary concentration (first morning urine, Croatian pregnant women, corresponds to 58 μg/L) is reported as 0.15 µM. The IC50 (mammalian ribosomes) was over 100 µM, the “cytotoxic effect” value (T24 bladder cancer cells) was “did not exert cytotoxic effects” and the “lowest concentration at which the proliferative effect was present” value (T24 bladder cancer cells) was 0.1 nM. For the same molecule, the “cytotoxic effect” value [2] was “did not exert cytotoxic effects”, the “cytotoxic effect” value (Caco-2 cells) was “did not exert cytotoxic effects” and the “proliferative stimulus” value (Caco-2 cells) was “not significant”. For the same molecule, the “cytotoxic effect” value [3] was “did not exert cytotoxic effects”, the “lowest concentration at which the proliferative effect was present” value [3] was 0.1 nM and the “DON-3-sulfate excreted per day” value ([4]; Average of days 3-6) was 0.02 µmol/day. The “DON-3-sulfate excreted per day” value [4, 5] was 4.9 µg/day, the DON-3-sulfate in urine [4, 5] was 2.1 µg/L and the “DON-3-sulfate excreted per day” value ([4]; Day 3) was 0.02 µmol/day. The DON-3-sulfate in urine ([4]; Day 3, high DON diet 138 μg/d, as DON equivalents) was 2.8 µg/L, the “DON-3-sulfate excreted per day” value ([4]; Day 3, as DON equivalents) was 6.0 µg/day and the “DON-3-sulfate excreted per day” value ([4]; Day 4) was 0.01 µmol/day. The DON-3-sulfate in urine ([4]; Day 4, high DON diet 138 μg/d, as DON equivalents) was 1.0 µg/L, the “DON-3-sulfate excreted per day” value ([4]; Day 4, as DON equivalents) was 2.8 µg/day and the “DON-3-sulfate excreted per day” value ([4]; Day 5) was 0.02 µmol/day. For the same molecule, the DON-3-sulfate in urine ([4]; Day 5, high DON diet 138 μg/d, as DON equivalents) was 2.2 µg/L, the “DON-3-sulfate excreted per day” value ([4]; Day 5, as DON equivalents) was 4.8 µg/day and the “DON-3-sulfate excreted per day” value ([4]; Day 6) was 0.02 µmol/day. For the same molecule, the DON-3-sulfate in urine ([4]; Day 6, high DON diet 138 μg/d, as DON equivalents) was 2.3 µg/L, the “DON-3-sulfate excreted per day” value ([4]; Day 6, as DON equivalents) was 5.9 µg/day and the DON-3-sulfate in urine ([4]; Day 7, first day after DON diet was stopped, as DON equivalents) was “absence”. The “urinary 24 h excretion rate, of the DON quantity ingested through contaminated food” value ([4]; volunteer, 138 μg DON per day over four days, estimate in text) was “approximately 4%” and the “free DON formed by hydrolysis of the conjugate” value (HT-29 cells) was “neither detected in the supernatant nor in the cell lysate”.

For CC1=C[C@H]2O[C@@H]3[C@H](O)C[C@](C)([C@@]2(CO)[C@H](O)C1=O)[C@]31CO1 [DON, deoxynivalenol], the IC50 (mammalian ribosomes) was 1.5 µM.
